Anti-infective test results gathered from many reports (values: NIAID ChemDB through PubChem).

Common to all: toxicity to cultured cells; cells: CEM; measure: CC50

Blank or dashed fields: not listed here.

structure | read by | value
Cc1cc(S(=O)(=O)CCc2cccc3ccccc23)cc(=O)o1 | MTT | 83 µM
COC(=O)[C@H](CCCCN)NP(=O)(OC[C@H]1C=C[C@@H](n2cnc3c(N)ncnc32)C1)Oc1ccccc1 | trypan blue | >250 µM
Cc1ccnc2c1N(CN1CCN(c3ccc([N+](=O)[O-])cc3)CC1)C(=O)c1cccnc1N2C1CC1 | XTT | >200 µM
Cc1cc(NCCc2c[nH]c3ccccc23)c(C(=O)C(Cl)Cl)c(=O)o1 | MTT | 4 µM
CCCCCCCCCCCCCC(=O)OC[C@H](COP(=O)(O)OP(=O)(O)OC[C@@H]1CC[C@H](n2cc(C)c(=O)[nH]c2=O)O1)OC(=O)CCCCCCCCCCCCC | trypan blue | 430 µM
C[C@@]1(CO)C=CC(c2cnc(N)[nH]c2=O)C1 | XTT | >100 µM
Cc1cn([C@@H]2O[C@H](CC3CCCCC3)C3(OS(=O)(=O)C=C3N)[C@H]2O[Si](C)(C)C(C)(C)C)c(=O)[nH]c1=O | trypan blue | 7.7 µg/mL
Nc1nc(NC2CC2)c2ncn(C=C3CC3CO)c2n1 | visual reading | 100 µM
COc1ccc(Nc2nc(NS(=O)(=O)c3cc(C)c(Cl)cc3S)n[nH]2)cc1 |  | >200 µM
Cc1cc(S(=O)(=O)CCc2cccc3ccccc23)c(Br)c(=O)o1 | MTT | 2.2 µM
C[C@]12CC[C@H](OS(=O)(=O)O)CC1=CC[C@@H]1[C@@H]2CC[C@]2(C)C(=O)CC[C@@H]12 | trypan blue | >1000 µM
Cc1ccnc2c1N(CN1CCN(c3ccccc3)CC1)C(=O)c1cccnc1N2C1CC1 | XTT | >200 µM
CC(=O)Oc1cc(S(=O)(=O)Nc2n[nH]c(N)n2)c(S)cc1Cl |  | >200 µM
Cc1ccnc2c1N(CN1CCNCC1)C(=O)c1cccnc1N2C1CC1 | XTT | >200 µM
Cc1cn([C@H]2CC[C@@H](CO)O2)c(=O)[nH]c1=O | trypan blue | 1380 µM
Cc1noc(C)c1-n1sc(=O)n(CC2CC2)c1=O | MTS | >10 µM
C[C@@]1(CO)C=CC(c2c[nH]c(=O)[nH]c2=O)C1 | XTT | >100 µM
Cc1cccc(Cl)c1-n1sc(=O)n(CC2CC2)c1=O | MTS | >10 µM
COCCNC(=O)OC(=O)c1c2c(nc3ccccc13)/C(=C\c1ccc(O)cc1)CCC2 | trypan blue | >25 µM
NCC(O)c1ccc(O)c(O)c1 | cell count | >100 µg/mL
CC1=NN(c2nc(N)nc(C(C)Sc3cc(Cl)c(C)cc3S(N)(=O)=O)n2)C(C)(C)C1 |  | 43.1 µM
Cc1ccnc2c1N(CN1CCN(c3cccc(Cl)c3)CC1)C(=O)c1cccnc1N2C1CC1 | XTT | >200 µM
Cc1cn([C@H]2C[C@H](N=[N+]=[N-])[C@@H](CO)O2)c(=O)[nH]c1=O | XTT | >100 µM
Cc1cn([C@@H]2O[C@H](CC3CCCCC3)C3(OS(=O)(=O)C=C3N)[C@H]2OC(=O)c2ccccc2)c(=O)[nH]c1=O | trypan blue | 8.8 µg/mL
COc1cccc(O)c1O | cell count | >100 µg/mL
CCCCC(Sc1cc(Cl)c(C)cc1S(=O)(=O)Nc1n[nH]c(N)n1)C(=O)OC |  | 112 µM
Cc1cc(=O)oc2cc(O)c(O)cc12 | cell count | ≥100 µg/mL
Cc1cc(CO)c(O)c(-c2cc(C)cc(CO)c2O)c1 | trypan blue | 150 µM
COc1ccc(N2CCN(CN3C(=O)c4cccnc4N(C4CC4)c4nccc(C)c43)CC2)cc1 | XTT | >200 µM
Cc1cn([C@H]2C[C@H](N=[N+]=[N-])[C@@H](CO)O2)c(=O)[nH]c1=O | XTT | 4.5 µM
CCn1cc(C(=O)O)c(=O)c2cc(F)c(N3CCN(CC(=O)OC[C@H]4O[C@@H](n5cc(C)c(=O)[nH]c5=O)C[C@@H]4N=[N+]=[N-])CC3)cc21 | XTT | >200 µM
Nc1cc(C(=O)O)ccc1SSc1ccc(C(=O)O)cc1N |  | >200 µM

Lines come from different laboratories, so protocols vary. CCn: concentration that lowers growth or viability of the cells by n%.